From publication PMC6789456, “Ursolic Acid Derivatives as Potential Agents Against Acanthamoeba Spp” (Pathogens, 2019)

What was measured:
[1] = system: Acanthamoeba castellanii Neff; assay: In vitro effect against the trophozoite stage, Alamar Blue assay; type: cell-based; details: selectivity index, murine macrophages CC50 vs A. castellanii Neff IC50
Procedure: (§1) The anti-Acanthamoeba activity of molecules was evaluated against the Acanthamoeba castellanii Neff (ATCC 30010) type strain from the American Type Culture Collection and Acanthamoeba griffini obtained in previous studies. Those strains were grown axenically in Peptone Yeast Glucose (PYG) medium (0.75% (w/v) proteose peptone, 0.75% (w/v) yeast extract, and 1.5% (w/v) glucose) containing 40 μg of gentamicin ml−1 (Biochrom AG, Cultek, Granollers, Barcelona, Spain).
(§2) The anti-Acanthamoeba activities of the compounds were determined by the Alamar Blue assay as previously described. Briefly, Acanthamoeba strains were seeded in duplicate on a 96-well microtiter plate with 50 μL from a stock solution of 10^4 cells mL^−1. Amoebae were allowed to adhere for 15 min and 50 μL of serial dilution series of the eye drop solution was added. Finally, the Alamar Blue assay reagent (Bioresource, Europe, Nivelles, Belgium) was added into each well at an amount equal to 10% of the medium volume. The plates were then incubated for 96 h at 28 °C with a slight agitation and the emitted fluorescence was measured with an Enspire microplate reader (PerkinElmer, Massachusetts, USA) at 570/585 nm.

Acanthamoeba griffini = assay: as above; type: cell-based; details: selectivity index, murine macrophages CC50 vs A. griffini IC50
Procedure: as §1, §2

Structure (SMILES) | SI for A. Neff [1] | SI for A. Griffini (Acanthamoeba griffini)
CC(=O)O[C@H]1CC[C@@]2(C)C(CC[C@]3(C)C2CC=C2C4[C@@H](C)[C@H](C)CC[C@]4(C(=O)O)CC[C@]23C)C1(C)C (stereo partly drawn) [Compound 2] | 3.9 | 8.4
COC(=O)[C@]12CC[C@@H](C)[C@H](C)C1C1=CCC3[C@@]4(C)CC[C@H](O)C(C)(C)C4CC[C@@]3(C)[C@]1(C)CC2 (stereo partly drawn) [Compound 4] | 1.2 | 3.0
COC(=O)[C@]12CC[C@@H](C)[C@H](C)C1C1=CCC3[C@@]4(C)CC[C@H](OC)C(C)(C)C4CC[C@@]3(C)[C@]1(C)CC2 (stereo partly drawn) [Compound 5] | >4.4 | >14.5
[H]/N=C(\N/C(=N/[H])NCCCCCCNC(=N)NC(=N)Nc1ccc(Cl)cc1)Nc1ccc(Cl)cc1 [Chlorhexidine, reference compound] | 2.5 | 2.0
COC(=O)[C@]12CC[C@@H](C)[C@H](C)C1C1=CCC3[C@@]4(C)CC[C@H](OC(=O)c5ccc([N+](=O)[O-])cc5)C(C)(C)C4CC[C@@]3(C)[C@]1(C)CC2 (stereo partly drawn) [Compound 7, 3β-(p-nitrobenzoyloxy)-urs-12-en-28-oic acid methyl ester] | >4.7 | >14.9
COC(=O)[C@]12CC[C@@H](C)[C@H](C)C1C1=CCC3[C@@]4(C)CC[C@H](OC(C)=O)C(C)(C)C4CC[C@@]3(C)[C@]1(C)CC2 (stereo partly drawn) [Compound 6] | >2.7 | >11.0
COC(=O)[C@]12CC[C@@H](C)[C@H](C)C1C1=CCC3[C@@]4(C)CC[C@H](OC(=O)c5ccccc5)C(C)(C)C4CC[C@@]3(C)[C@]1(C)CC2 (stereo partly drawn) [Compound 8] | >3.0 | >8.7
C[C@H]1[C@H](C)CC[C@]2(C(=O)O)CC[C@]3(C)C(=CC[C@@H]4[C@@]5(C)CC[C@H](O)C(C)(C)[C@@H]5CC[C@]43C)[C@H]12 [Compound 1, Ursolic acid] | 0.4 | 1.2
C[C@@H]1CC[C@]2(C(=O)O)CC[C@]3(C)C(=CCC4[C@@]5(C)CCC(=O)C(C)(C)C5CC[C@]43C)C2[C@H]1C (stereo partly drawn) [Compound 3] | >2.9 | >9.7
